This is a selection; strong and weak results do not stand in their true shares. Activity calls are given as the source filed them. Rule as the data show it: active = inhibition above about 27%; inactive = the rest.
Target: Fructose-bisphosphate aldolase (Mycobacterium tuberculosis (strain ATCC 25618 / H37Rv)) (UniProt P9WQA3)
Experiment: M. tuberculosis aldolase activity blockers – biochemical, fluorescence, strain H37Rv, primary screen (AID 588726);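 also: 0% = vehicle and 100% = reference inhibitor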
Settings: purified M. tuberculosis FBA, fluorescence read-out; at 1 µM; active compounds read high

The chains behind the UniProt entries cited, without tags or fusion partners. Where a name states a change or a piece, a line headed by the entry shows the natural chain unless it says otherwise.
UniProt P9WQA3: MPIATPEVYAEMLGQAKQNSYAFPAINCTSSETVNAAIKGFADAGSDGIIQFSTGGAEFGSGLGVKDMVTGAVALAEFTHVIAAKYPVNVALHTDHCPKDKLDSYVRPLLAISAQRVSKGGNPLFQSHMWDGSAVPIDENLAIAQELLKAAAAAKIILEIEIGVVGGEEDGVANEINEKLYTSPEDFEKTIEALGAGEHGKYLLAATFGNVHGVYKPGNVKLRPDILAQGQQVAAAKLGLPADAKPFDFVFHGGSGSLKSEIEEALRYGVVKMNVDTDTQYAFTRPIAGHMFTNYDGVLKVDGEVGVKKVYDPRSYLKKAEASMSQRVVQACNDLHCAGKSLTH

Row | SMILES | inhibition
1 | ClCCSc1nnc(-c2cccnc2)o1 | inactive: 1.14%
2 | CC(C)NC(=O)NP(=O)(Oc1ccccc1)Oc1ccccc1 | inactive: 6.32%
3 | CCN(CC)C(=S)SC(NC=O)C(Cl)(Cl)Cl (stereo not drawn) | inactive: 2.07%
4 | O=C(OC1CN2CCC1CC2)c1cccc2[nH]cnc12 (stereo not drawn) | inactive: 3.12%
5 | O=[N+]([O-])c1cc([N+](=O)[O-])c(-c2ccn[nH]2)s1 | inactive: -0.91%
6 | O=C(OC1CN2CCC1CC2)C12CC3CC(CC(C3)C1)C2 (stereo not drawn) | inactive: 3.12%
7 | Cc1cc(=O)[nH]c(N[N+](=O)[O-])n1 | inactive: -2.56%
8 | Cc1c2c(nc3ccccc13)SC(C(Cl)Cl)C2 (stereo not drawn) | inactive: -1.84%
9 | COc1ccc2nc(NP(=O)(c3ccccc3)c3ccccc3)sc2c1 | inactive: -3.42%
10 | COc1cc(I)ccc1[As](=O)(O)O | inactive: 5.12%
11 | O=P1(N(CCCl)CCCl)Nc2ccccc2N1 | inactive: 4.5%
12 | O=P1(N(CCCl)CCCl)OCCCN1CCCl (stereo not drawn) | inactive: 1.36%
13 | COc1ccc(N/C(=N/P(=O)(N2CCOCC2)N2CCOCC2)N2CCOCC2)cc1 | inactive: 0.46%
14 | O=[N+]([O-])c1cc(Oc2ccc([N+](=O)[O-])cc2C(F)(F)F)cc([N+](=O)[O-])c1 | inactive: -0.85%
15 | O=[As](O)(O)c1cccnc1 | inactive: -2.28%
16 | COc1cc(C(=O)NCC2(N3CCOCC3)CCCCC2)cc(Cl)c1OC(C)C | inactive: -4.57%
17 | CS(=O)(=O)c1ccc(Cl)c(NC(=O)COC(=O)C(O)(c2ccccc2)c2ccccc2)c1 | inactive: -2.04%
18 | O=C(OC1CN2CCC1CC2)c1ccc(Cl)cc1 (stereo not drawn) | inactive: -1.33%
19 | Cc1cccc(OCC(=O)OC2CN3CCC2CC3)c1 (stereo not drawn) | inactive: 3.8%
20 | O=[As](O)(c1cccc(O)c1)c1cccc(O)c1 | inactive: 0.69%
21 | CCCOP(=S)(Nc1nc(N)cc(=O)[nH]1)OCCC | inactive: -0.15%
22 | Cc1ccc(NCCc2c([N+](=O)[O-])cc([N+](=O)[O-])cc2[N+](=O)[O-])cc1 | inactive: -1.5%
23 | Nc1cccc2c([As](=O)(O)O)cccc12 | inactive: 7.61%
24 | COc1cc(C2NCCC3(OCCO3)C2(C)C)cc(OC)c1OC (stereo not drawn) | inactive: 6.12%
25 | CCOP(=O)(Nc1cccc2ccccc12)OCC | inactive: 9.91%
26 | CS(=O)(=O)c1cc([N+](=O)[O-])c2no[n+]([O-])c2c1 | inactive: -11.6%
27 | CCOP1(=S)c2c(C)nn(CCC#N)c2N=C(c2ccccc2F)N1C (stereo not drawn) | inactive: 0.02%
28 | O=P(Nc1nccs1)(Oc1ccccc1)Oc1ccccc1 | inactive: -0.74%
